Test results from PubChem BioAssay AID1918990.
The entries are a selection whose mix differs from that of the whole data set. Activity calls are given as the source filed them.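 How the source made its calls: active means replicate mean overnight rise in green fluorescent reporter signal, 3 or more SD over negative controls; inactive means the rest.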

Assay: fixK promoter GFP reporter activation – B. multivorans, primary screen (AID 1918990)
Conditions: 18 h, active compounds read high
For `Cc1ncn(C)c1C(=O)NCC1(N2CCOCC2)CCCCC1`, the z-score was inactive: -0.46.
For `CCN(C)C1(CNC(=O)c2cc(C(C)C)nn2C)CCCCC1`, the z-score was inactive: 0.17.
